Experiments:
DENV-2 NGC [1] = assay: Antiviral activity against DENV-2 NGC in A549 cells (viral RNA load by RT-qPCR); assay type: cell-based, Dengue virus; details: DENV-2 in A549 cells (Table 6); ratio CC50 / EC50
DENV-2 NGC [2] = assay: Antiviral activity against DENV-2 NGC in Vero-B cells (viral RNA load by RT-qPCR); assay type: cell-based, Dengue virus; details: DENV-2 in Vero-B cells (Table 3); ratio CC50 / EC50
YFV-17D = assay type: cell-based, yellow fever virus; details: YFV in Vero-B cells (Table 5); ratio CC50 / EC50

SMILES	SI (DENV-2 NGC [1])	SI (DENV-2 NGC [2])	SI (YFV-17D)
COc1cc(CO)cc(NC(C(=O)c2c[nH]c3ccccc23)c2ccc(C)nc2)c1 (stereo not shown) [CPD-320]	>22522	>1781	
COc1cc(NC(C(=O)c2c[nH]c3ccccc23)c2cc3ccccn3n2)cc(OC)c1 (stereo not shown) [CPD-293]	>43103	50498	
COc1cc(NC(C(=O)c2c[nH]c3ccccc23)c2ccc(C)nc2)cc(OC)c1 (stereo not shown) [CPD-346]	7559	9945	
COc1cc(NC(C(=O)c2c[nH]c3ccccc23)c2ccccc2)cc(OCCO)c1 (stereo not shown) [CPD-255]	2030	1535	
COc1cc(NC(C(=O)c2cn(C)c3ccccc23)c2cccnc2)cc(OC)c1 (stereo not shown) [CPD-360]	>4630	>3541	
COc1cc(NC(C(=O)c2nn(C)c3ccccc23)c2ccc(F)cc2)cc(OC)c1 (stereo not shown) [CPD-340]	>4425	>6223	
COc1cc(NC(C(=O)c2c[nH]c3ccccc23)c2cccnc2)cc(OC)c1 (stereo not shown) [CPD-236]	3428	4562	
COc1cc(NC(C(=O)c2c[nH]c3ccccc23)c2cc3ccccn3n2)cc(OCCO)c1 (stereo not shown) [CPD-336]	>22523	>8498	
COc1cccc(NC(C(=O)c2csc3ccccc23)c2ccccc2)c1 (stereo not shown) [CPD-193]		>185	>250
COc1cc(NC(C(=O)c2c[nH]c3ccccc23)c2cnc(OC)cn2)cc(OC)c1 (stereo not shown) [CPD-294]	4048	2598	
COc1ccc(NC(C(=O)c2c[nH]c3ccccc23)c2ccccc2)cc1OC (stereo not shown) [CPD-001]		380	5
COc1cc(NC(C(=O)c2c[nH]c3ccc(F)cc23)c2ccccc2)cc(OC)c1 (stereo not shown) [CPD-131]	1447	1779	
COc1cccc(NC(C(=O)c2c[nH]c3ccccc23)c2ccccc2)c1 (stereo not shown) [CPD-010]	242	244	>22
COc1cccc(NC(C(=O)c2c[nH]c3ccccc23)c2nc3ccccc3o2)c1 (stereo not shown) [CPD-328]	2140	1231	
COc1cc(NC(C(=O)c2c[nH]c3ccccc23)c2ccc(F)cc2)cc(OCCO)c1 (stereo not shown) [CPD-350]	7758	3462	
COc1cc(NC(C(=O)c2c[nH]c3ccccc23)c2ccccc2)cc(OC)c1 (stereo not shown) [CPD-002]		2307	9
COc1cc(CO)cc(NC(C(=O)c2c[nH]c3ccc(F)cc23)c2cccnc2)c1 (stereo not shown) [CPD-334]	3536	1746	
COc1cncc(NC(C(=O)c2c[nH]c3cc(F)ccc23)c2ccc(OC)nc2)c1 (stereo not shown) [CPD-242]	4642	1340	
COc1cc(NC(C(=O)c2c[nH]c3cc(Cl)ccc23)c2ccccc2)cc(OC)c1 (stereo not shown) [CPD-013]		5726	20
COc1cc(NC(C(=O)c2c[nH]c3c(C)cccc23)c2ccc(F)cc2)cc(OC)c1 (stereo not shown) [CPD-341]		6121	
CCc1cncc(NC(C(=O)c2c[nH]c3ccccc23)c2ccccc2)c1 (stereo not shown) [CPD-248]		27	
COc1cc(NC(C(=O)c2nn(C)c3ccccc23)c2ccccc2)cc(OC)c1 (stereo not shown) [CPD-265]		>5616	
COc1cccc(NC(C(=O)c2nn(C)c3ccccc23)c2ccc(C#N)cc2)c1 (stereo not shown) [CPD-260]		>1681	

SMILES	SI (DENV-2 NGC [1])	SI (DENV-2 NGC [2])	SI (YFV-17D)
COc1cccc(NC(C(=O)c2c[nH]c3ccccc23)c2ccccc2F)c1 (stereo not shown) [CPD-144]		320	
COc1cc(NC(C(=O)c2c[nH]c3ccccc23)c2ccccc2)ccc1C#N (stereo not shown) [CPD-218]		6	
COc1cc(NC(C(=O)c2cn(C)c3ccccc23)c2ccccc2)cc(OC)c1 (stereo not shown) [CPD-338]	>4808	>16618	
COc1cccc(NC(C(=O)c2c[nH]c3ccccc23)c2cn3ccc(C)cc3n2)c1 (stereo not shown) [CPD-096]		>42	
CCc1cccc2c(C(=O)C(Nc3ccc(NC(=O)CN4CCOCC4)cc3)c3ccccc3)c[nH]c12 (stereo not shown) [CPD-186]		9	
COc1cc(NC(C(=O)c2c[nH]c3ccccc23)c2cnc(OC)cn2)cc(OCCO)c1 (stereo not shown) [CPD-292]		1043	
COc1cc(CO)cc(NC(C(=O)c2c[nH]c3ccccc23)c2ccc(F)cc2)c1 (stereo not shown) [CPD-313]		1464	
O=C(c1c[nH]c2ccccc12)C(Nc1cccc(-c2cnco2)c1)c1ccccc1 (stereo not shown) [CPD-059]		13	
COc1cc(NC(C(=O)c2c[nH]c3ccccc23)c2ccccc2)nc(OC)n1 (stereo not shown) [CPD-087]		>161	
COc1cccc(NC(C(=O)c2c[nH]c3cccc(C)c23)c2ccccc2)c1 (stereo not shown) [CPD-251]		195	
CCOC(=O)CCCOc1cc(NC(C(=O)c2c[nH]c3ccccc23)c2ccccc2)cc(OC)c1 (stereo not shown) [CPD-367]		>2863	
COc1cccc(NC(C(=O)c2c[nH]c3cc(F)ccc23)c2cccnc2)c1 (stereo not shown) [CPD-152]		814	
COc1cccc(NC(C(=O)c2c[nH]c3c(C)cccc23)c2ccccc2)c1 (stereo not shown) [CPD-224]		>2622	
COc1cccc(NC(C(=O)c2c[nH]c3ccc(F)cc23)c2cccnc2)c1 (stereo not shown) [CPD-151]		>1443	
COc1cccc(NC(C(=O)c2c[nH]c3ccccc23)c2ccc(C#N)cc2)c1 (stereo not shown) [CPD-036]		333	
O=C(c1c[nH]c2ccccc12)C(Nc1ccnc(O)c1)c1ccccc1 (stereo not shown) [CPD-031]		>2	
COc1cccc(NC(C(=O)c2c[nH]c3cccc(OC)c23)c2ccccc2)c1 (stereo not shown) [CPD-231]		15	
COc1cccc(NC(C(=O)c2c[nH]c3ccccc23)c2cnccn2)c1 (stereo not shown) [CPD-274]		257	
COc1cc(NC(C(=O)c2c[nH]c3ccccc23)c2ccc(F)cc2)ccn1 (stereo not shown) [CPD-090]		5	
COc1cncc(NC(C(=O)c2c[nH]c3ccccc23)c2ccccc2)n1 (stereo not shown) [CPD-252]		140	
COc1cccc(NC(C(=O)c2cn(S(=O)(=O)c3cn(C)cn3)c3ccccc23)c2ccccc2)c1 (stereo not shown) [CPD-209]		>89	
COc1cccc(NC(C(=O)c2c[nH]c3ccc(F)cc23)c2cnc(OC)cn2)c1 (stereo not shown) [CPD-295]		679	
COc1cncc(NC(C(=O)c2c[nH]c3c(CCO)cccc23)c2ccccc2)c1 (stereo not shown) [CPD-364]		55	

SMILES	SI (DENV-2 NGC [1])	SI (DENV-2 NGC [2])	SI (YFV-17D)
O=C(c1c[nH]c2ccccc12)C(NCc1ccco1)c1ccccc1 (stereo not shown) [CPD-034]		>3	
COc1cc(NC(C(=O)c2cn(C)c3ccccc23)c2ccccc2)cc(OCCO)c1 (stereo not shown) [CPD-305]		>1263	
O=C(c1c[nH]c2ccccc12)C(NCc1cccs1)c1ccccc1 (stereo not shown) [CPD-033]		8	
CCOC(=O)c1cccc(NC(C(=O)c2c[nH]c3ccccc23)c2ccccc2)c1 (stereo not shown) [CPD-068]		9	
COc1cccc(NC(C(=O)c2c[nH]c3cccnc23)c2ccccc2)c1 (stereo not shown) [CPD-195]		5	
COc1cccc(NC(C(=O)c2noc3ccccc23)c2ccccc2)c1 (stereo not shown) [CPD-330]		>30	
COc1cccc(NC(C(=O)c2nn(CCO)c3ccccc23)c2ccccc2)c1 (stereo not shown) [CPD-303]		135	
COc1cccc(NC(C(=O)c2c[nH]c3ccccc23)c2cccnc2)c1 (stereo not shown) [CPD-019]		514	9
CN(Cc1ccco1)C(C(=O)c1c[nH]c2ccccc12)c1ccccc1 (stereo not shown) [CPD-189]		>156	
O=C(c1c[nH]c2ccccc12)C(NC1CCSc2ccccc21)c1ccccc1 (stereo not shown) [CPD-191]		5	
COc1cccc(NC(C(=O)c2c[nH]c3ccc(Cl)cc23)c2ccccc2)c1 (stereo not shown) [CPD-086]		329	
COc1cc(NC(C(=O)c2c[nH]c3c(CCN(C)C)cccc23)c2ccccc2)cc(OC)c1 (stereo not shown) [CPD-365]		6	
COc1cccc(NC(C(=O)c2cccc3[nH]ccc23)c2ccccc2)c1 (stereo not shown) [CPD-302]		23	
COc1cc(NC(C(=O)c2c(C)[nH]c3ccccc23)c2ccccc2)cc(OC)c1 (stereo not shown) [CPD-012]		297	>23
COc1cc(F)cc(NC(C(=O)c2c[nH]c3ccccc23)c2ccccc2)c1 (stereo not shown) [CPD-015]		1065	
COc1cc(NC(C(=O)c2c[nH]c3ccccc23)c2ccccc2)ncn1 (stereo not shown) [CPD-072]		10	
COc1cc(NC(C(=O)c2c[nH]c3cc(F)ccc23)c2ccccc2)ccn1 (stereo not shown) [CPD-075]		67	
O=C(c1c[nH]c2ccccc12)C(Nc1ccnc(F)c1)c1ccccc1 (stereo not shown) [CPD-207]		4	
COc1cc(NC(C(=O)c2c[nH]c3ccccc23)c2ccc3[nH]ccc3c2)ccn1 (stereo not shown) [CPD-097]		5	
CCOc1ncc(NC(C(=O)c2c[nH]c3ccccc23)c2ccccc2)cc1OC (stereo not shown) [CPD-258]		49	
COc1cccc(NC(C(=O)c2c[nH]c3cc(OC)ccc23)c2ccccc2)c1 (stereo not shown) [CPD-077]		313	
COc1cccc(NC(C(=O)c2c[nH]c3ccccc23)c2cnc(OC)nc2)c1 (stereo not shown) [CPD-240]		578	

From US12012411B2, “Viral replication inhibitors” (Katholieke Universiteit Leuven, priority 2011, dated 2024)
